Construct, isoform or probe ends are uncertain for at least one entry.
Columns and labels:
[1] = biological target: FleQ (Pseudomonas syringae pv. tomato DC3000) (UniProt Q884Y2); test: EMSA; settings: 1 uM FleQ, no nucleotide; STAD: 25 mM Tris-acetate pH 8.0, 8 mM Mg-acetate, 10 mM KCl, 3.5% PEG-8000, 1 mM DTT, 10 ug/ml poly(dI-dC), 200 ug/ml BSA; 30 min at 4 C; recombinant protein; label: 5'-32P; probe letters rebuilt from the primers and the genome
[2] = biological target: FleQ (Pseudomonas syringae pv. tomato DC3000) (UniProt Q884Y2); test: DNase I footprinting; settings: no nucleotide, about 100 bp protected; STAD: 25 mM Tris-acetate pH 8.0, 8 mM Mg-acetate, 10 mM KCl, 3.5% PEG-8000, 1 mM DTT, 10 ug/ml poly(dI-dC), 200 ug/ml …; 30 min at 4 C; recombinant protein; label: 5'-32P; probe letters rebuilt from the primers and the genome
[3] = biological target: FleQ (Pseudomonas syringae pv. tomato DC3000) (UniProt Q884Y2); test: DMS footprinting; settings: no nucleotide, G-76, G-79, G-90 top protected, G-88, G-89 bottom hyperreactive; STAD: 25 mM Tris-acetate pH 8.0, 8 mM Mg-acetate, 10 mM KCl, 3.5% PEG-8000, 1 mM DTT, 10 ug/ml poly(dI-dC), 200 ug/ml BSA; 30 min at 4 C; recombinant protein; label: 5'-32P; probe letters rebuilt from the primers and the genome

Measured: binding result

TGGTTGCTCGATAGACGGCTGAGAGGTCGCGCGTTGCAGTGCAACAGACGGGGTGCTGGAAACGGAAGATTCCTGATAATCCAGGCTGTTGTCCGTCTCCAGATAACCGTCCGAGCTCGCGCCGAAACGTTGAAACAGATTGGCCACATCGTCAGCACGACTCATTCTGTACGACCTCAATTGGGGCCACCAGGCACAACCCCAGTGGAAAAGCATTAATACTAATGTGTAATGTCATTGTGACAGTGTCAATAAACCGATATATGGCGTCCACAATTTACCGATGAGCGGTAAATTACTCGTTTTTCGACATTTTATTGGCGCTACAAAATTGTAGATCTGGAGACAATCGGGGGCAAACGGGGCTGATTCGAGGGTTTTACGCACTTGCGGCTATATATCCTATGGATCGGATATATAGCCGCTCAAGGGGAGGATCGAATTAAATCAGTGGCTGG (double strand) [wssA1-2 (PwssA promoter fragment)]
binds: [1] | [2] | [3]

From article PMC10083355
